Data reported in publication PMC11153131, “Crimean–Congo haemorrhagic fever virus uses LDLR to bind and enter host cells” (2024).

Target: recombinant LDLR protein, extracellular domain, immobilised on the QCM chip (human) (UniProt P01130)
Assay: quartz crystal microbalance (QCM)

## combination of CCHFV Gc and Gn (added together) (complex)
  Kd: 0.272 nM
  koff: 8.67e-06 s⁻¹
  kon: 21000 M⁻¹ s⁻¹
